Measured values as given in US5348743A, “Anti-pathogenically effective compositions comprising lytic peptides and hydrolytic enzymes” (priority 1993, dated 1994).

Test system: S. nodorum
Assay: Inhibitory effect of lytic peptides and hydrolytic enzymes against S. nodorum (microtiter plates, liquid pea medium, absorbance at 595 nm)
Type: cell-based, Septoria nodorum
Description: Microtiter plates were selected to investigate the inhibitory effect of lytic peptides and hydrolytic enzymes against S. nodorum. Test substances were added to 90 ul liquid pea medium which had been previously inoculated with 2.0×10^4 spores/ml medium of the test pathogen to give a final volume of 100 ul. The blank value of the test substances were determined by adding them to uninoculated liquid pea medium. The plates were evaluated after incubation in a wet chamber at 23° C. on a shaker in the dark for 48 hours.
a. Hydrolytic enzymes were purified from ethylene-treated bean leaves by the procedure described in Example 1.
b. Lytic peptides: The following antimicrobial peptides were tested at 20 ppm, 60 ppm and 200 ppm concentrations:
d. Combinations of test substances: Table 3 illustrates the composition of test solutions which were tested in duplicate/triplicate samples.
e. Evaluation: The growth of the pathogen was recorded by measuring the absorbance of the medium at 595 nm. The average of duplicate/triplicate samples was calculated and the corresponding enzyme blank was subtracted to give the net absorption of the growing mycelium. The inhibitory effect of the test substances used was determined by calculating the growth of the pathogen as a percentage of water control.

CC[C@H](C)[C@H](NC(=O)CN)C(=O)NCC(=O)N[C@@H](C)C(=O)N[C@H](C(=O)N[C@@H](CC(C)C)C(=O)N[C@@H](CCCCN)C(=O)N[C@H](C(=O)N[C@@H](CC(C)C)C(=O)N[C@H](C(=O)N[C@H](C(=O)NCC(=O)N[C@@H](CC(C)C)C(=O)N1CCC[C@H]1C(=O)N[C@@H](C)C(=O)N[C@@H](CC(C)C)C(=O)N[C@H](C(=O)N[C@@H](CO)C(=O)N[C@@H](Cc1c[nH]c2ccccc12)C(=O)N[C@H](C(=O)N[C@@H](CCCCN)C(=O)N[C@@H](CCCNC(=N)N)C(=O)N[C@@H](CCCCN)C(=O)N[C@@H](CCCNC(=N)N)C(=O)N[C@@H](CCC(N)=O)C(=O)N[C@@H](CCC(N)=O)C(N)=O)[C@@H](C)CC)[C@@H](C)CC)[C@@H](C)O)[C@@H](C)O)C(C)C)C(C)C [MELLITIN]
FUNGAL GROWTH IN PERCENTAGE OF CONTROL (test solution 5: lytic peptide 20 ppm alone, 48 hours, 23° C.): 79.65 percentage of control
FUNGAL GROWTH IN PERCENTAGE OF CONTROL (test solution 6: lytic peptide 60 ppm alone, 48 hours, 23° C.): 65.96 percentage of control
FUNGAL GROWTH IN PERCENTAGE OF CONTROL (test solution 7: lytic peptide 200 ppm alone, 48 hours, 23° C.): 27.37 percentage of control
FUNGAL GROWTH IN PERCENTAGE OF CONTROL (test solution 12: lytic peptide 20 ppm + chitinase 1/10 c): 62.81 percentage of control
FUNGAL GROWTH IN PERCENTAGE OF CONTROL (test solution 13: lytic peptide 60 ppm + chitinase 1/10 c): 57.54 percentage of control
FUNGAL GROWTH IN PERCENTAGE OF CONTROL (test solution 14: lytic peptide 200 ppm + chitinase 1/10 c): 22.46 percentage of control
FUNGAL GROWTH IN PERCENTAGE OF CONTROL (test solution 15: lytic peptide 20 ppm + chitinase 1/100 c): 73.33 percentage of control
FUNGAL GROWTH IN PERCENTAGE OF CONTROL (test solution 16: lytic peptide 60 ppm + chitinase 1/100 c): 65.26 percentage of control
FUNGAL GROWTH IN PERCENTAGE OF CONTROL (test solution 17: lytic peptide 200 ppm + chitinase 1/100 c): 25.61 percentage of control
FUNGAL GROWTH IN PERCENTAGE OF CONTROL (test solution 18: lytic peptide 20 ppm + beta-1,3-glucanase 1/10 c): 14.74 percentage of control
FUNGAL GROWTH IN PERCENTAGE OF CONTROL (test solution 19: lytic peptide 60 ppm + beta-1,3-glucanase 1/10 c): 11.93 percentage of control
FUNGAL GROWTH IN PERCENTAGE OF CONTROL (test solution 20: lytic peptide 200 ppm + beta-1,3-glucanase 1/10 c): 6.32 percentage of control
FUNGAL GROWTH IN PERCENTAGE OF CONTROL (test solution 21: lytic peptide 20 ppm + beta-1,3-glucanase 1/100 c): 61.40 percentage of control
FUNGAL GROWTH IN PERCENTAGE OF CONTROL (test solution 22: lytic peptide 60 ppm + beta-1,3-glucanase 1/100 c): 57.19 percentage of control
FUNGAL GROWTH IN PERCENTAGE OF CONTROL (test solution 23: lytic peptide 200 ppm + beta-1,3-glucanase 1/100 c): 25.96 percentage of control
FUNGAL GROWTH IN PERCENTAGE OF CONTROL (test solution 24: lytic peptide 20 ppm + chitinase 1/10 c + beta-1,3-glucanase 1/10 c): 10.53 percentage of control
FUNGAL GROWTH IN PERCENTAGE OF CONTROL (test solution 25: lytic peptide 60 ppm + chitinase 1/10 c + beta-1,3-glucanase 1/10 c): 7.37 percentage of control
FUNGAL GROWTH IN PERCENTAGE OF CONTROL (test solution 26: lytic peptide 200 ppm + chitinase 1/10 c + beta-1,3-glucanase 1/10 c): 0.00 percentage of control
FUNGAL GROWTH IN PERCENTAGE OF CONTROL (test solution 27: lytic peptide 20 ppm + chitinase 1/100 c + beta-1,3-glucanase 1/100 c): 22.72 percentage of control
FUNGAL GROWTH IN PERCENTAGE OF CONTROL (test solution 28: lytic peptide 60 ppm + chitinase 1/100 c + beta-1,3-glucanase 1/100 c): 22.11 percentage of control
FUNGAL GROWTH IN PERCENTAGE OF CONTROL (test solution 29: lytic peptide 200 ppm + chitinase 1/100 c + beta-1,3-glucanase 1/100 c): 18.75 percentage of control
